PubChem BioAssay AID504761 | Drosophila RNAi Screening Center, 2011
The deposit covers about 22,000 reagents; below is an unselected part of those with a known target gene and a result. Over the whole deposit, 116 (0.52%) are marked active. 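Calls depend on retest data that are not deposited; infection was ranked per plate without normalising between plates; the unit of the infection score is not given.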 Raw values are not corrected between plates. The record does not give: the amount of reagent, the time to read-out.

Assay: 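Fly genes whose silencing reduces dengue virus type 2 infection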 (primary screen)
System: D.Mel-2 cells from Drosophila
Knock-down reagent: long dsRNA against Drosophila genes
Treatment: infection with dengue virus type 2; dose and infection time not stated
Read-out: 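Per well on two replicate plates, imaging gave the percent of cells positive for viral envelope protein, ranked by infection, and a nuclear count of cells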
Reading the numbers: infection score: higher = more virus-infected cells; cell count: higher = more cells in the well
Active means: 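Low infection ranks in the two replicates (chance level up to 0.065) followed by a retest with a 1.5-fold or larger significant decrease, p below 0.05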
Meaning of the calls: active = confirmed: knock-down lowers infection; inactive = not picked or not confirmed

Gene	PubChem SID	infection score, replicate 1	infection score, replicate 2	cell count, replicate 1	cell count, replicate 2	call
CG32695	SID104197767	10.7	8.73	6254	6334	inactive
CG17598	SID104200428	9.03	0.89	6680	6377	inactive
BicD	SID104181798	11.6	43.2	6472	4907	inactive
Start1	SID104184176	19.6	20.2	6695	5924	inactive
Start1	SID104206887	13.1	15.8	5818	5147	inactive
nopo	SID104186710	9.5	10.4	6029	5592	inactive
CG7142	SID104195996	2.47	2.98	6889	7325	inactive
CG7142	SID104205512	19.2	10.8	5757	6315	inactive
CG31125	SID104193476	1.94	1.09	6032	5326	inactive
CG31125	SID104203670	2.84	5.46	6796	6978	inactive

In a second layout: 2 of the entries above
CG31125 [SID104193476]
- infection score, replicate 1: 1.94
- infection score, replicate 2: 1.09
- cell count, replicate 1: 6032
- cell count, replicate 2: 5326
- call: inactive

CG31125 [SID104203670]
- infection score, replicate 1: 2.84
- infection score, replicate 2: 5.46
- cell count, replicate 1: 6796
- cell count, replicate 2: 6978
- call: inactive

The list goes on.
Gene	PubChem SID	infection score, replicate 1	infection score, replicate 2	cell count, replicate 1	cell count, replicate 2	call
CenG1A	SID104182330	8.06	5.69	5557	6121	inactive
CenG1A	SID104183297	2.4	3.17	6046	6190	inactive
CenG1A	SID104183298	2.18	9.71	6427	6274	inactive
CenG1A	SID104206573	16.6	0.28	2028	354	inactive
CG14710	SID104194725	11.7	16.9	5326	5532	inactive
CG34425	SID104192002	8.54	2.67	6063	6290	inactive
CG34425	SID104201819	2.58	3.13	6249	6323	inactive
jumu	SID104196443	17.9	21.4	4459	4638	inactive
Trf4-1	SID104197567		12.4	437	2806	inactive
Vha14-2	SID104191937	5.33	4.42	6487	6409	inactive
CG31674	SID104183000	0.93	9.31	6644	5587	inactive
CG31674	SID104205576	3.31	7.67	6712	6258	inactive
CG13705	SID104188106	3	1.76	6366	5667	inactive
CG13705	SID104202080	23.6	2.63	6267	7194	inactive
CG13705	SID104203719	9.82	14.9	5937	5483	inactive
